Experiment [1] addresses T1, SARS-CoV-2 Prototype RBD蛋白 (野生型新型冠状病毒刺突蛋白受体结合域段RBD蛋白) (SARS-CoV-2). Description: SPR (Biacore 8K). To be noted: remark: other sources report otherwise. Background: SPR reads the build-up and loss of mass on a sensor chip optically.
Experiment [2] concerns the target T1, SARS-CoV-2 Prototype RBD蛋白 …. Conditions: remark: other sources report otherwise.

What is called Kd is the free concentration of one partner at which half of the binding sites on the other are occupied at equilibrium, for simple one-to-one binding.

B1: IMCAS-72抗体 (全抗IgG1) (antibody)
heavy: DQVQLVESGGGLVQPGGSLRLSCAASGFTFSSYGMHWVRQAPGKGLEWVAVISYDGSDKYYADSVKGRFTISRDNSKNTLYLQMNSLRAEDTAVYYCARDRDRFGDQGGWFDPWGQGTLVTVSSASTKGPSVFPLAPSSKSTSGGTAALGCLVKDYFPEPVTVSWNSGALTSGVHTFPAVLQSSGLYSLSSVVTVPSSSLGTQTYICNVNHKPSNTKVDKRV[sequence of human IgG1 Fc omitted]
light: [sequence of about 100 residues omitted][sequence of about 100 residues omitted]
B1 had a Kd in experiment [1] of 0.39 nM. Moreover, in experiment [2], the 最低检测限 is 4 ng/mL.

(Values after patent CN114395035A.)
